A mixed list of measured activities; the numbers were collected in NIAID ChemDB.

Common to all: whole-cell or culture tests; species: HIV-1; read by: cytopathic effect / XTT; endpoint: EC50

ECn: concentration that inhibits the pathogen or its effect by n%.

SMILES,mutations,cell line,strain or isolate,value
Cc1ccccc1CNC(=O)[C@H]1N(C(=O)[C@@H](O)[C@H](Cc2ccccc2)NC(=O)c2ccc(F)c(O)c2C)CSC1(C)C,,CEM + CEM-SS,IIIB,0.055 µg/mL
C/C=C/CSc1cc(NC(=S)c2ccsc2C)ccc1Cl,RT-K103N,CEM + CEM-SS,UC10/costatolide-resistant (RT K103N),>2 µM
NC(=O)C(c1ccccc1)(c1ccccc1)[C@H]1CCCN(CCc2ccc3c(c2)CCO3)C1,,MT-2,NL4-3,0.82 µM
O=S(=O)(c1ccccc1)c1ccccc1,,CEM,IIIB,2.3 µM
CNC(=O)[C@@H](NC(=O)[C@H](CCc1ccccc1)[C@H](O)[C@@H](O)[C@@H](CCc1ccccc1)C(=O)N[C@H](C(=O)NC)C(C)C)C(C)C,,MT-4,,1.9 µM
Nc1nc(=O)n([C@@H]2CS[C@H](CO)O2)cc1F,,MT-2,LAI (RT-K65R Q151M) Recombinant,>20 µM
Nc1nc2c(ncn2C2CC(CO)C2)c(=O)[nH]1,,CEM,IIIB,230 µM
C[C@H]1/C=C/[C@@]2(C)CC[C@@H](C(C)(C)O)[C@@H]2[C@@H](O)C[C@](C)(O)/C=C/C1,,U87 (CD4+ CCR5+ CXCR4+) + U87,95BRRJ010 X4,~15 µM
COS(=O)CCOC(=O)c1ccccc1SSc1ccccc1C(=O)OCCS(=O)OC,,CEM + CEM-SS,RF,96.2 µM
Cc1cn([C@H]2C[C@H](N=[N+]=[N-])[C@@H](CO)O2)c(=O)[nH]c1=O,,CEM + CEM-SS,RF,0.002 µM
NC(=O)CSSCC(N)=O,,CEM + CEM-SS,RF,12.9 µM
CC1(C)CCC[C@]2(C)[C@@H](c3ccoc3)C(=O)[C@@H]3O[C@]312,,CEM + CEM-SS,RF,42.1 µM
O=C1N(Cc2ccc(CO)cc2)[C@H](Cc2ccccc2)[C@H](O)[C@@H](O)[C@@H](Cc2ccccc2)N1Cc1ccc(CO)cc1,PR-V82A,MT-4,IIIB,0.12 µM
Cc1ccccc1CCN1CCCC(C(C(N)=O)(c2ccccc2)c2ccccc2)C1,,MT-2,NL4-3,1.4 µM
COC(=S)SSC(=S)NCCN(CCNC(=S)SSC(=S)OC)C(=S)SSC(=S)OC,,CEM + CEM-SS,RF,79 µM
Cc1cn([C@H]2C[C@H](N=[N+]=[N-])[C@@H](CO)O2)c(=O)[nH]c1=O,,CEM + CEM-SS,,0.003 µM
O=C(O)c1cc(O)cc(O)c1N=Nc1ccc(/C=C/c2ccc(N=Nc3c(O)cc(O)cc3C(=O)O)cc2S(=O)(=O)O)c(S(=O)(=O)O)c1,,CEM + CEM-SS,IIIB,3.2 µg/mL
NS(=O)(=O)c1ccc(NC(=O)c2ccccc2SSc2ccccc2C(=O)Nc2ccc(S(N)(=O)=O)cc2)cc1,,CEM + CEM-SS,IIIB,0.72 µM
Cc1cc(C(=O)O)c(C)cc1SSc1cc(C)c(C(=O)O)cc1C,,CEM + CEM-SS,RF,28.4 µM
Cc1cn([C@H]2C[C@H](N=[N+]=[N-])[C@@H](CO)O2)c(=O)[nH]c1=O,,CEM + CEM-SS,RF,0.004 µM
Cc1cn([C@H]2C[C@H](N=[N+]=[N-])[C@@H](CO)O2)c(=O)[nH]c1=O,,CEM,IIIB,0.014 µg/mL
NC(=S)N=Nc1c(O)cc(Nc2ccc(Cl)cc2Cl)c2ccccc12,,CEM,IIIB,89 µM
O=C(O)c1ccc(SSc2ccc(C(=O)O)cc2)cc1,,CEM + CEM-SS,RF,123.5 µM
Fc1cccc(F)c1C1SCc2nc3ccccc3n21,,CEM,IIIB,0.52 µM
O=C(N[C@H]1c2ccccc2C[C@H]1O)[C@H](CCc1ccccc1)[C@H](O)[C@H](O)[C@@H](CCc1ccccc1)C(=O)NC1c2ccccc2C[C@H]1O,,MT-4,,>10 µM
O=P(c1ccccc1)(c1ccccc1)c1ccccc1,,CEM,IIIB,0.58 µM
CC(=O)NCCSS(=O)(=O)CCCCS(=O)(=O)SCCNC(C)=O,,CEM + CEM-SS,RF,127.4 µM
Cc1occc1C(=S)Nc1ccc(Cl)c(/C=N/OC(C)(C)C)c1,,U-937,IIIB,0.03 µM
Cc1ccccc1CNC(=O)[C@H]1N(C(=O)[C@@H](O)[C@H](Cc2ccccc2)NC(=O)c2cccc(O)c2C)CSC1(C)C,,CEM + CEM-SS,IIIB,0.049 µg/mL
CN(C)C=Nc1ccn([C@H]2C[C@H](F)[C@@H](CO)O2)c(=O)n1,,CEM + CEM-SS,RF,1 µg/mL
Fc1cccc(F)c1C1SCc2nc3ccccc3n21,,CEM + CEM-SS,IIIB,0.98 µM

A second listing of 2 rows from above:

C[C@H]1/C=C/[C@@]2(C)CC[C@@H](C(C)(C)O)[C@@H]2[C@@H](O)C[C@](C)(O)/C=C/C1 ; cell line: U87 (CD4+ CCR5+ CXCR4+) + U87 ; strain or isolate: 95BRRJ010 X4 ; value: ~15 µM
Fc1cccc(F)c1C1SCc2nc3ccccc3n21 ; cell line: CEM + CEM-SS ; strain or isolate: IIIB ; value: 0.98 µM

Blank or dashed fields: not listed here. Rows are shuffled and stem from different studies.